Patent US20250382354A1 (INSTITUTE FOR RESEARCH IN BIOMEDICINE IRB, published 2025)
Changes are numbered by the printed parent chain.

B1: rbd.110 (antibody, V domains shown)
VH: EVQLVESGGGVVQPGRSLRLSCVASGFTFSRYGMHWVRQAPGKGLEWVATILYDGSDQYYAESVKGRFTISRDNSKNTLYLQMNSLREADTAVYYCAKTSYGYAYNFRLYFDYWGQGTLVTVSS
VL: SYELTQPPSVSVAPGKTATITCGGNNIGSAGVHWYQQRPGQAPVLVVYDDSDRPSGIPERFSGSTSGNTATLTISRVEAGDEADYYCQVWDSNSAPVIFGGGTKLTVL
B2: rbd.112 (antibody, V domains shown)
VH: EVQLVQSGAEVKKSGESLKISCKSSGYSFTTYWIAWVRQMPGKGLEWMGIIYPGHSDARYSPSFQGHVTISADKSISTAYLQWRSLKASDTAIYYCARLSYYDVSNFYYYDSYWFDSWGLGTLVTVSS
VL: QSVLTQPPSVSGAPGQRVTISCTGSSSNLGAGYDVHWYQQLPGTAPKLLIYANSNRPSGVPDRFSGSKSGTSASLAMTGLQAEDEADYYCQSYDSSLGGYVFGFGTKVTVL
B3: rbd.113 (antibody, V domains shown)
VH: EVQLVQSGAAVKKPGESLKISCKGSGYSFTNYWIGWVRQMPGKGLELMGIIYVGDSDTRYSPSFQGQVTISADKSITTAYLQWSSLKASDSAIYYCARQRCGGDCPFDLWGRGTLVTVSS
VL: DIQMTQSPSTLSASVGDRVTITCRASQSINRWLAWYQQKPGKAPELLIYDASDLESGVPSRFSGSGSGTEFTLTISSLQPDDFATYYCQQYNSYWTFGQGTKVEIK
B4: rbd.117 (antibody, V domains shown)
VH: EVQLVESGGGLVQPGGSLRLSCAASGFTFSRYAMSWVRQAPGKGLEWVSGLSGSGDSTYYADSVKGRFTISRDNSKKTLNLQMNSLRPEDTAVYYCAKGSRFGIDYFDCWGQGTLVTVSS
VL: DIQMTQSPSTLSASVGDRVTITCRASQSISSWLAWYQLKPGKAPKLLIYDASSLESGVPSRFSGSGSGTEFTLTISSLQPDDFATYYCQQYNTYPFSFGPGTKVDIK
B5: rbd.123 (antibody, V domains shown)
VH: QVQLVQSGAEVKKPGSSVKVSCKASGGAFRMYAISWVRQAPGQGLEWMGGIIPISGTATYTQNFQGRVTITVDRSTSTAYMELSSLRSDDTALYYCARGPRTGYDYFDFWGQGTLVTVSS
VL: B4 VL with L38Q, K45N, N92K, T93S, F96Y, S97T, P100Q, V104L, D105E
B6: rbd.143 (antibody, V domains shown)
VH: EVQLVESGGGLVQPGGSLRLSCSASGFTFRRYAMHWVRQAPGKGLQHVSAISSDGDNTHYADSVKGRFTISRDNFKNTLHLQMSSLRPEDTAVYYCVKDPFSNFHYFDCWGQGILVTVSS
VL: not shown

Tests used:
Assay in all cases: protein ELISA
[1] = target: T1, SARS-CoV-2 SD1-RBD Omicron BA.1 (SARS-CoV-2 Omicron BA.1)
T1 construct: domain: SD1-RBD

[2] = target: T2, SARS-CoV-2 SD1-RBD Omicron BA.2.75 (SARS-CoV-2 Omicron BA.2.75)
T2 construct: domain: SD1-RBD

[3] = target: T3, SARS-CoV-2 SD1-RBD Omicron BA.4/BA.5 (SARS-CoV-2 Omicron BA.4/BA.5)
T3 construct: domain: SD1-RBD

Binder	EC50 [1] [µg/mL]	EC50 [2] [µg/mL]	EC50 [3] [µg/mL]
B1	0.0189	0.0525	0.015
B2	0.0289	0.0647	0.0213
B3	0.0199	0.0511	0.0169
B4	0.0258	0.0522	0.0234
B5	0.00942	0.0136	0.00893
B6	0.0223	0.0375	0.0261
